In publication PMC4148453:

How the values were obtained:
[1] = molecular target: 6His-BfmR (Pseudomonas aeruginosa MPAO1) (UniProt Q9HWS7); assay: DNase I footprinting; details: 50 mM acetyl phosphate, 10 mM Tris-Cl pH 8.0, 1 mM DTT, 10% glycerol, 5 mM MgCl2, 10 mM KCl, with 50 mM acetyl phosphate when indicated, footprint at room temperature, recombinant protein, residues 1-246, protein details: N-terminal 6His (thrombin-cleavable, pET28a), probe letters rebuilt from the primers and the genome
[2] = molecular target: 6His-BfmR (Pseudomonas aeruginosa MPAO1) (UniProt Q9HWS7); assay: EMSA; details: 10 mM Tris-Cl pH 8.0, 1 mM DTT, 10% glycerol, 5 mM MgCl2, 10 mM KCl, with 50 mM acetyl phosphate when indicated, EMSA 30 min at 37 C, footprint at room temperature, recombinant protein, residues 1-246, protein details: N-terminal 6His (thrombin-cleavable, pET28a), probe letters rebuilt from the primers and the genome

ATGCCGTAGCGGTAGCTTTCGGTCGGTACCGGTGCGGCGGCCTGGGCGGCGAACGCGGGAAGCGCAAGCGCGGCGAGCAGGGTGGTGGCGAGCAGGGTGCGAGTCATGGGGGATCTCCTGGCGGCAGGACCGCGTCGGTGGAAGGCGACATGCCTTCGTCGAGGCCTATTCCAGGCCGCGGAGTTGTCCCGGATGTGTCGCTGGAATGCCCGATTCGTCAGCCGCTGTATCGCCGCTGCCGGCCGATACATGGCCGTACATTCGCCGCCCCGCTCCCGCCGGACGAATCGCGCCCGGCGCCATCCGTCGTCTCCCCCGTTCGCGACAGCGACAACCGGGCTTTTTTGCACGCCCCGGTATTCGCCCCGGCTCCGGATACAGTGCAATACAAACCCCGGCAGGCAAGCGCCGCGGGCGCGGATACACTGCTTGCAAGCACACCAACCGCCACGGGAGCCAGGCAATGGAGCATGTCGATCAC (double strand) [bfmR promoter, 6-FAM]
binding result ([1]; label: 5' 6-FAM on reverse strand): binds

ATGCCGTAGCGGTAGCTTTCGGTCGGTACCGGTGCGGCGGCCTGGGCGGCGAACGCGGGAAGCGCAAGCGCGGCGAGCAGGGTGGTGGCGAGCAGGGTGCGAGTCATGGGGGATCTCCTGGCGGCAGGACCGCGTCGGTGGAAGGCGACATGCCTTCGTCGAGGCCTATTCCAGGCCGCGGAGTTGTCCCGGATGTGTCGCTGGAATGCCCGATTCGTCAGCCGCTGTATCGCCGCTGCCGGCCGATACATGGCCGTACATTCGCCGCCCCGCTCCCGCCGGACGAATCGCGCCCGGCGCCATCCGTCGTCTCCCCCGTTCGCGACAGCGACAACCGGGCTTTTTTGCACGCCCCGGTATTCGCCCCGGCTCCGGATACAGTGCAATACAAACCCCGGCAGGCAAGCGCCGCGGGCGCGGATACACTGCTTGCAAGCACACCAACCGCCACGGGAGCCAGGCAATGGAGCATGTCGATCAC (double strand) [bfmR promoter]
binding result [2]: binds
Kd ([2]; 50 mM acetyl phosphate): 200 nM

GATGTATCGGGGGTGTATCGCCCGACACGTGGATTTGTACGCCGGAGGTATCGAAACCGCGCATGGATACAAAGCGATACGCAATCGAGCGCGGGCATGCCGACGAAGTGCCGGGCATCTCTCACTCCCGCCGGCCCATCTCGGCTACCGTTAGGAGACAGCCACCTGGCCCAGTCTCGAGGTCGAGCCCATCGTGCTGAAACGCATTCCGGTAACCCAGCTTCGCCTCGGTATGTTCGTCCAGAGCCTTTGCGGCTCGTGGCTGGACCACCCGTTCTGGAAAAGAGGTGGCTTCCTGCTCGACAGCCAGGCCGACCTGCAGCGCCTGCGCGAAAGCGCCGTGAAGGAGGTCTGGATCGA (double strand) [PA4107 promoter (4107-P)]
binding result [2]: binds

GTCGACAATGCGCTGAAGTTCGCCGGCGCCGCGCGCCTGGAAGTGGAACGCCGTACCGATGGCGGCACGCGAATCCAGGTGCTGGACAATGGCCCGGGGATTCCCGCCGAGGAACTCGACGAGGTGCTCAAGCCCTTCTACCGGGTGGAAAACTCGCGCAATCGCGACACCGGTGGCACCGGCCTCGGCCTGGCCATCGCGCAGCAGCTGAGCCTGGCCCTCGGCGGCCGCCTGACCCTGGCCAACCGCGCCGGCGGCGGGCTTTGCGCGCGCATCGAGCTGGACCCCTGAGGCGCCCGTACAGAGCGATACATAACCGCCCTCGGCGGACACACTGCGGATAAACCCGCTTGCAACACTCCTGGCCACGGGAAGCGGCGGCACATCGCCGAGCCGCTCCCGGCAACCAGGAGCCCCACCATGACCGTCCCAACCTCTC (double strand) [PA4103 promoter, FAM]
binding result ([1]; label: 5' FAM on reverse strand): binds
